Measured values taken from publication PMC4428071, “Structural basis for epitope masking and strain specificity of a conserved epitope in an intrinsically disordered malaria vaccine candidate” (Scientific Reports, 2015).

What was measured:
Conditions in all cases: both partners purified
[1] = target: full-length recombinant 3D7 MSP2 (Plasmodium falciparum 3D7, UniProt P50498); experiment: ITC; Microcal ITC-200; MSP2 or peptide titrated into 6D8 scFv or 6D8 IgG
[2] = target: T1, full-length recombinant FC27 MSP2 (Plasmodium falciparum, FC27 allele); experiment: as above
T1 chain: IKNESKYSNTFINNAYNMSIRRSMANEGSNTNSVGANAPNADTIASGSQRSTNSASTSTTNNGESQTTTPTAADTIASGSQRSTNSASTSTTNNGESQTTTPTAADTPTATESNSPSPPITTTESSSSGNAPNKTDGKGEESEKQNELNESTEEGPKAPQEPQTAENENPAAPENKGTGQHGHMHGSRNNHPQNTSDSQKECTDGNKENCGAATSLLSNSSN

FC27-MSP2_(14-30) [3] = target: T2, FC27-MSP2_(14-30) (Plasmodium falciparum, FC27 allele, strain); experiment: as above
T2 construct: source: synthetic peptide
T2 chain: NAYNMSIRRSMANEGSN

3D7-MSP2_(14-30) [4] = target: T3, 3D7-MSP2_(14-30) (Plasmodium falciparum, 3D7, strain); experiment: as above
T3 construct: source: synthetic peptide
T3 chain: NAYNMSIRRSMAESKPS

[5] = target: T4, C-terminally His-tagged FC27 MSP2 (Plasmodium falciparum, FC27 allele); experiment: SPR; MSP2 immobilised by conventional amide coupling to the chip in the absence of lipid; antibody flowed over
T4 construct: not shown: His6, C-terminal, kept
T4 chain: T1 chain

FC27-MSP2_(14-30) [6] = target: T2, FC27-MSP2_(14-30); experiment: crystal structure; 6D8 Fv co-crystallised with synthetic peptides, hanging drop; molecular replacement; 1.2 to 1.7 A
3D7-MSP2_(14-30) [7] = target: T3, 3D7-MSP2_(14-30); experiment: as above

Measured: binding result

B1: mouse monoclonal antibody 6D8 (antibody, V domains shown)
VH: QVQLQQSGDELVKPGASVKLSCTVSGFNIKDDFIHWMKQRPEQGLEWIGRIDPANGYTKYAPKFQDKATMTADTSSNTAYLQLSSLASEDAAVYYCATYGVAYWGQGTLVTVSA
VL: DIVLTQSPASLAVSLGQRATISCKASQSVDHDGDSYMNWFQQKPGQSPKLLIYAASNLESGIPARFSGSGSGTDFTLNIHPVEEEDAATYYCQQTNEDPYTFGGGTKLEIK
notes: also called mAb 6D8; 6D8 IgG
not listed: FC27-MSP2_(14-30) [6] | 3D7-MSP2_(14-30) [7]
binds: all other assays above

B2: 6D8 scFv (scFv, V domains shown)
VH: B1 VH
VL: B1 VL
binds: [1] | [2] | FC27-MSP2_(14-30) [3] | 3D7-MSP2_(14-30) [4]

B3: 6D8 Fv (other, mouse)
VH: B1 VH
VL: B1 VL
notes: also called Fv region of mAb 6D8
binds: FC27-MSP2_(14-30) [6] | 3D7-MSP2_(14-30) [7]
